Data taken from PubChem BioAssay AID710 (SRMLSC, 2007).
The entries are a selection whose mix differs from that of the whole data set. Active and inactive are the calls of the source.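 How the source made its calls: active means growth inhibition above about 50% at one test dose (limit read from the data); inactive means the rest.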

Test: antibacterial activity against E. coli BW25113 – strain BW25113, expanded library, OD600, primary screen (AID 710);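 further: growth measured after 20 h incubation at 37 °C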
Details: OD600 absorbance, at 100 µM, active compounds read high

Structure (SMILES)	growth inhibition
O=C(NCC1(N2CCOCC2)CCCCC1)c1cc(=O)[nH]c2ccccc12	inactive: -6%
N#CC1(Nc2ccccc2)CCN(CCc2ccccc2)CC1	inactive: -1%
O=C(NCC1(N2CCOCC2)CCCCC1)c1cc2ccccc2o1	inactive: 0%
O=C(OC1CN2CCC1CC2)C1c2ccccc2Oc2ccccc21 (centres undefined)	inactive: 8%
COc1ccc(NC2CCN(CCc3ccccc3)CC2)c(OC)c1	inactive: -2%
CCC(CO)(C(=O)OC1CN2CCC1CC2)c1ccccc1 (centres undefined)	inactive: 0%
CCOc1ncccc1C(=O)NCC1(N2CCOCC2)CCCCC1	inactive: -3%
N/C(=N\O)c1c(N)no[n+]1[O-]	inactive: -6%
c1ccc(CN2CCC(Nc3ccccc3)CC2)cc1	inactive: 5%
